PubChem BioAssay AID1259414 – Drosophila RNAi Screening Center, 2018
In all, the deposit lists about 24,000 reagents; shown is an unselected part of those with a known target gene and a result. Over the whole deposit, about 1,210 (5%) are marked active. 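Inactive calls also include excluded dsRNAs with several or no targets, genes unexpressed in JW18, and well A1, regardless of score.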 Entries without a mark were called inactive. A plus sign joins genes that one reagent is predicted to hit.

- Screen: 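Genome-wide screen for host control of endosymbiont load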 (primary screen)
- System: Drosophila JW18 cells infected with Wolbachia
- Knock-down reagent: long dsRNA against Drosophila genes, 0.25 µg dsRNA per well of a 384-well plate
- Duration: 5 days
- Conditions: cells persistently infected with Wolbachia before knock-down; no added drug
- Measured: 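Imaged fluorescence in situ signal for Wolbachia 23S rRNA per DAPI-counted host cell, given as a robust z-score within each plate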
- Direction: Wolbachia per cell robust z: higher = more Wolbachia per host cell than the plate typical
- Call rule: 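Hit when robust z is 1.5 or more, or -1.5 or less, in at least two of three replicates; excludes dsRNAs with several or no targets, genes not expressed in JW18 and well A1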

gene | DRSC id | Wolbachia per cell robust z, rep 1 | Wolbachia per cell robust z, rep 2 | Wolbachia per cell robust z, rep 3
OdsH | DRSC20263 | 0.844 | 1.15 | 1.16
CG5961 | DRSC15927 | 0.0509 | -0.706 | 0.897
CG5961 | DRSC27152 | 1.16 | 0.0236 | -0.00262
Lip2 | DRSC02577 | -1.32 | 0.368 | -1.4
Lip2 | DRSC02578 | -0.267 | -0.318 | 0.552
hrm | DRSC04853 | -4.45 | -0.369 | -0.221
obst-G | DRSC11103 | 0.842 | 0.327 | 1.31
CG31560 | DRSC12136 | -0.688 | -0.0312 | 0.881
Asciz | DRSC08421 | -2.3 | 0.939 | 0.538
CG2577 | DRSC19863 | 0.901 | 0.00722 | 0.356
CG2577 | DRSC23309 | -1.36 | -0.137 | 0.165
CG2577 | DRSC26322 | 0.11 | 1.24 | 2.03
CCT1 | DRSC16877 | 0.169 | 0.216 | 1.01
CCT1 | DRSC26661 | 0.32 | 0.127 | -0.498
dachs | DRSC01026 | 0.827 | -2.84 | 0.685
dachs | DRSC02072 | 0.345 | 1.13 | 1.93
dachs | DRSC02191 | -0.323 | -0.196 | -2.62
dachs | DRSC26121 | -1.12 | -0.179 | -0.814
dachs | DRSC28403 | -0.0631 | 0.944 | 0.264

Next part; the last 3 above are carried over.
gene | DRSC id | Wolbachia per cell robust z, rep 1 | Wolbachia per cell robust z, rep 2 | Wolbachia per cell robust z, rep 3
dachs | DRSC02191 | -0.323 | -0.196 | -2.62
dachs | DRSC26121 | -1.12 | -0.179 | -0.814
dachs | DRSC28403 | -0.0631 | 0.944 | 0.264
Notum | DRSC09959 | 0.0723 | -0.074 | -0.452
CG32204 | DRSC09574 | 0.327 | -3.53 | -0.232
CG32204 | DRSC23663 | -0.989 | 1.96 | -0.478
CG13108 | DRSC02206 | -0.441 | -0.746 | -0.874
CG5565 | DRSC00690 | -4.57 | -0.055 | -0.364
CG5565 | DRSC41350 | -0.36 | -1.29 | 0.218
CG8149 | DRSC16391 | 0.459 | -0.73 | -2.3
bchs + CG14000 | DRSC02333 | 0.506 | 1.07 | 2.43
CG34207 | DRSC38739 | -7.07 | -2.79 | 0.00133
CG10669 | DRSC14261 | -4.12 | -1.02 | 1.28
side | DRSC14523 | 0.151 | -0.306 | 0.465
side | DRSC14716 | 0.0897 | -0.81 | -3.73
side | DRSC14717 | -0.875 | 0.198 | -0.127
side | DRSC14718 | -0.664 | -3.51 | 0.25
side | DRSC14721 | -3.24 | -1.43 | 0.637
CG42258 | DRSC19741 | -0.625 | -1.65 | -0.549
CG42258 | DRSC23161 | 0.706 | -0.0407 | 0.038
CG42258 | DRSC27710 | 0.679 | -1.37 | 0.216
CG42258 | DRSC28451 | 0.303 | 1.1 | 0.00208
Spt7 | DRSC19997 | -3.61 | 0.61 | -0.374
Spt7 | DRSC24902 | -0.301 | -1.12 | -2.58
CG9389 | DRSC11857 | -1.34 | 1.08 | 0.43
CG12592 + sle | DRSC21387 | -0.499 | -0.519 | 0.633
CG12592 + sle | DRSC27126 | 0.81 | 0.531 | 1.82
mtgo | DRSC02769 | -0.0257 | 0.325 | 0.981
mtgo | DRSC21392 | 0.929 | -0.739 | 0.809
mtgo | DRSC21743 | 0.205 | 0.147 | 0.963
mtgo | DRSC27702 | -0.146 | 0.944 | 1.54
